Experimental data from publication PMC6031611, “Mycobacterium tuberculosis CarD, an essential global transcriptional regulator forms amyloid-like fibrils” (Scientific Reports, 2018).
Several values for one entry are separate records, joined by “and”; a condition that tells them apart may be missing. Equal entries are not always repeated.

Tests used:
SEC-SAXS = target: the molecule itself; experiment: SEC-SAXS
[1] = target: the molecule itself; experiment: MALDI-TOF intact mass spectrometry

Protein	stoichiometry N (SEC-SAXS)	stoichiometry N [1]
C-terminal his-tagged CarD (CarD^His), Mycobacterium tuberculosis (natural protein) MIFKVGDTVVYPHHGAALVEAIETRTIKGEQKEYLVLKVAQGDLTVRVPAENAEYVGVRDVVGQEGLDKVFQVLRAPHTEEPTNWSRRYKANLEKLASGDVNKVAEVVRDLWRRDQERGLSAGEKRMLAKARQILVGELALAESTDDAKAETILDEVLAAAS	2	
native tagless CarD, Mycobacterium tuberculosis (natural protein) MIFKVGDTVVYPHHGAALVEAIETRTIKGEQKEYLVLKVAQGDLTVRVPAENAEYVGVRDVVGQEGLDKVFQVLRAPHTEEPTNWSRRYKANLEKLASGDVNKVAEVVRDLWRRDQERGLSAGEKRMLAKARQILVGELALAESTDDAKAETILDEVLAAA		2 and 3
